{"source": "PubChem BioAssay AID624099 – ICCB-Longwood | 2012", "test": "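Host factors E2 relies on to silence an HPV18 LCR reporter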 (primary screen)", "cells": "human C33A cervical carcinoma cells (HPV-negative) stably expressing BPV1 E2 and an HPV18 LCR luciferase reporter", "reagent": "siRNA pool against human genes, 40 nM", "time to read-out": "72 h", "measured": "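Per-well luciferase luminescence, z-scored on each plate against the plate mean and SD with control wells left out, then averaged across three replicate plates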", "scale": "mean z-score and z-score: higher = stronger reporter signal, weaker E2 silencing", "rule for the call": "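Mean z ≥ 2 together with z ≥ 2 in two or more of the three replicates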", "note": "This is an unselected part of about 21,000 deposited reagents. Over the whole deposit, 497 (2.4%) got an active call. 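Higher z means weaker E2 silencing; only reporter increases were scored, and knock-downs that hurt cell survival may mask genuine repressor factors.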"}
{"gene knocked down": "PALMD", "mean z-score": 1.81, "z-score, replicate A": 1.6, "z-score, replicate B": 1.9, "z-score, replicate C": 1.94, "call": "inactive"}
{"gene knocked down": "SPAST", "mean z-score": 0.81, "z-score, replicate A": 0.98, "z-score, replicate B": 0.45, "z-score, replicate C": 1.01, "call": "inactive"}
{"gene knocked down": "SKP2", "mean z-score": -0.65, "z-score, replicate A": -0.65, "z-score, replicate B": -0.55, "z-score, replicate C": -0.74, "call": "inactive"}
{"gene knocked down": "PLEKHM1", "mean z-score": -0.09, "z-score, replicate A": 0.12, "z-score, replicate B": 0.14, "z-score, replicate C": -0.55, "call": "inactive"}
{"gene knocked down": "UPRT", "mean z-score": -1.94, "z-score, replicate A": -1.88, "z-score, replicate B": -1.68, "z-score, replicate C": -2.26, "call": "inactive"}
{"gene knocked down": "EFR3A", "mean z-score": -0.97, "z-score, replicate A": -0.76, "z-score, replicate B": -1.23, "z-score, replicate C": -0.91, "call": "inactive"}
{"gene knocked down": "DESI1", "mean z-score": 0.07, "z-score, replicate A": 0.22, "z-score, replicate B": 0.03, "z-score, replicate C": -0.05, "call": "inactive"}
{"gene knocked down": "LY6G6D", "mean z-score": -0.93, "z-score, replicate A": -1.06, "z-score, replicate B": -1.29, "z-score, replicate C": -0.43, "call": "inactive"}
{"gene knocked down": "PGBD4", "mean z-score": 1.3, "z-score, replicate A": 1.15, "z-score, replicate B": 0.93, "z-score, replicate C": 1.83, "call": "inactive"}
{"gene knocked down": "FIBCD1", "mean z-score": 1.23, "z-score, replicate A": 1.54, "z-score, replicate B": 0.96, "z-score, replicate C": 1.21, "call": "inactive"}
{"gene knocked down": "MYO7B", "mean z-score": 1.6, "z-score, replicate A": 1.33, "z-score, replicate B": 1.42, "z-score, replicate C": 2.04, "call": "inactive"}
{"gene knocked down": "RXFP4", "mean z-score": 0.49, "z-score, replicate A": 0.54, "z-score, replicate B": 0.45, "z-score, replicate C": 0.47, "call": "inactive"}
